Results of unrelated studies side by side (data: NIAID ChemDB).

Shared fields: enzyme or target tests

Blank or dashed fields: not listed here.

| structure | strain | read-out | target | read by | tested at | agent | result |
|---|---|---|---|---|---|---|---|
| Cc1ccc(S(=O)(=O)NN2C(=O)/C(=C\c3ccc(Cl)c(Cl)c3)SC2=S)cc1 |  | IC50 | NS5B polymerase |  |  | Hepatitis C virus | ≤30 µM |
| CC1=NCCN1c1cc(C(=O)Nc2ccc3[nH]ncc3c2)c(F)cc1F |  | inhibition | Reverse transcriptase |  | 0.01 µg/mL | Hepatitis B virus | 19% |
| N[C@@H](CC(=O)O)C(=O)N[C@@H](CCC(=O)O)C(=O)N[C@H](C(=O)N[C@@H](CCC(=O)O)C(=O)N[C@@H](CC1CCCCC1)C(=O)N[C@@H](CS)C(=O)O)C(c1ccccc1)c1ccccc1 |  | IC50 | NS3 protease |  |  | Hepatitis C virus | 0.05 µM |
| O=c1c(O)c(-c2ccccc2O)oc2cc(O)cc(O)c12 | J4 | inhibition | Replicase complex | SYBR Green | 20 µM | Hepatitis C virus | 70.5% |
| C=C[C@@H]1C[C@]1(NC(=O)[C@@H]1C[C@@H](Oc2cc(-c3ccccc3)nc3cc(OC)ccc23)CN1C(=O)[C@@H](NC(=O)Oc1ccc(OC)cc1)C(C)(C)C)C(=O)NS(=O)(=O)C1CC1 | BMS | IC50 | NS3/NS4A protease |  |  | Hepatitis C virus | <0.05 µM |
| O=C(Nc1ccc2cn[nH]c2c1)c1cc(N2CCC(O)CC2)c(F)cc1F |  | inhibition | Nonstructural protein 5B |  | 0.1 µg/mL | Hepatitis C virus | 24% |
| C=C[C@@H]1C[C@]1(NC(=O)[C@@H]1C[C@@H](Oc2cc(-c3ccccc3)nc3cc(OC)ccc23)CN1C(=O)[C@@H](Nc1ccccc1[N+](=O)[O-])C(C)(C)C)C(=O)NS(=O)(=O)C1CC1 | BMS | IC50 | NS3/NS4A protease |  |  | Hepatitis C virus | <5 µM |
| N[C@@H](CC(=O)O)C(=O)N[C@@H](CCC(=O)O)C(=O)N[C@@H](CC1CCCCC1)C(=O)N[C@@H](CCC(=O)O)C(=O)N[C@@H](CC1CCCCC1)C(=O)N[C@@H](CS)C(=O)O |  | IC50 | NS3 protease |  |  | Hepatitis C virus | 0.14 µM |
| O=c1cc(-c2ccc(O)c(O)c2)oc2cc(O)cc(O)c12 | J4 | inhibition | Replicase complex | SYBR Green | 20 µM | Hepatitis C virus | 81.7% |
| CN1CCN(c2cc(C(=O)Nc3ccc4cn[nH]c4c3)c(F)cc2F)CC1 |  | inhibition | Nonstructural protein 5B |  | 1 µg/mL | Hepatitis C virus | 23% |
| CC(C)C[C@H](NC(=O)[C@H](CC(=O)O)NC(=O)[C@H](CC1CCCCC1)NC(=O)[C@@H]1CCCN1C(=O)[C@H](CS)NC(=O)[C@@H](N)CC1CCCCC1)C(N)=O |  | IC50 | NS3/NS4A protease |  |  | Hepatitis C virus | >100 µM |
| O=C(Nc1ccc2cn[nH]c2c1)c1cc(NCc2ccccn2)c(F)cc1F |  | IC50 | Reverse transcriptase |  |  | Hepatitis B virus | 0.1–1 µg/mL |
| CC(C)C[C@H](NC(=O)[C@@H](CCC(=O)O)NC(=O)[C@@H](N)CC(=O)O)C(=O)N[C@@H](CCC(=O)O)C(=O)N[C@@H](CC1CCCCC1)C(=O)N[C@@H](CS)C(=O)O |  | IC50 | NS3 protease |  |  | Hepatitis C virus | 0.045 µM |
| Cc1nc(N)c2ncn([C@@H]3O[C@H](COC(=O)c4ccc(S(=O)(=O)F)cc4)[C@@H](O)[C@H]3O)c2n1 |  | inhibition | Nonstructural protein 3 NTPase/helicase |  | 300 µM | Hepatitis C virus | 46% |
| CSCC[C@H](NC(=O)[C@H](CCC(=O)O)NC(=O)[C@@H](N)CC(=O)O)C(=O)N[C@@H](CCC(=O)O)C(=O)N[C@@H](CCC(=O)O)C(=O)N[C@H](CS)C(=O)O |  | IC50 | NS3 protease |  |  | Hepatitis C virus | 4 µM |
| O=C1/C(=C\c2ccc(Cl)c(OC(F)(F)F)c2)SC(=S)N1NS(=O)(=O)c1ccccc1 |  | IC50 | NS5B polymerase |  |  | Hepatitis C virus | ≤30 µM |
| O=C(Nc1ccc2[nH]ncc2c1)c1cc(NCc2ccccn2)c(F)cc1F |  | inhibition | Nonstructural protein 5B |  | 0.1 µg/mL | Hepatitis C virus | 36% |
| COc1ccc(/C=C2/SC(=S)N(NS(=O)(=O)c3ccccc3)C2=O)cc1C |  | IC50 | NS5B polymerase |  |  | Hepatitis C virus | ≤30 µM |
| O=c1c(O)c(-c2ccc(O)c(O)c2)oc2cc(O)c(O)c(O)c12 | J4 | inhibition | Replicase complex | SYBR Green | 20 µM | Hepatitis C virus | 85.6% |
| C=CC(=O)NCC(=O)N1C[C@H](Oc2nccc3ccc(Br)cc23)C[C@H]1C(=O)N[C@]1(C(=O)NS(=O)(=O)C2CC2)C[C@H]1C=C | 1b A156T | IC50 | Nonstructural protein 3/4A | FRET |  | Hepatitis C virus | 0.046 µM |
| O=C(OC[C@H]1O[C@@H](n2cnc3c(=O)[nH]cnc32)[C@H](O)[C@@H]1O)c1ccc(S(=O)(=O)F)cc1 |  | inhibition | Nonstructural protein 3 NTPase/helicase |  | 300 µM | Hepatitis C virus | 25% |
| C#CCOC(=O)N[C@H](C(=O)N1C[C@H](Oc2cc(-c3ccccc3)nc3cc(OC)ccc23)C[C@H]1C(=O)N[C@]1(C(=O)NS(=O)(=O)C2CC2)C[C@H]1C=C)C(C)(C)C | BMS | IC50 | NS3/NS4A protease |  |  | Hepatitis C virus | <0.05 µM |
| CSCC[C@H](NC(=O)[C@H](CCC(=O)O)NC(=O)[C@@H](N)CC(=O)O)C(=O)N[C@@H](CCC(=O)O)C(=O)N[C@@H](CC1CCCCC1)C(=O)N[C@@H](CS)C(=O)O |  | IC50 | NS3 protease |  |  | Hepatitis C virus | 0.3 µM |
| C=C[C@@H]1C[C@]1(NC(=O)[C@@H]1C[C@@H](Oc2cc(-c3ccccc3)nc3cc(OC)ccc23)CN1C(=O)[C@@H](NC(=O)CF)C(C)(C)C)C(=O)NS(=O)(=O)C1CC1 | BMS | IC50 | NS3/NS4A protease |  |  | Hepatitis C virus | <0.05 µM |
| O=C1/C(=C\c2ccc(/C=C/c3ccccc3)cc2)SC(=S)N1NS(=O)(=O)c1cccc([N+](=O)[O-])c1 |  | IC50 | NS5B polymerase |  |  | Hepatitis C virus | ≤30 µM |
| O=C(Nc1ccc2cn[nH]c2c1)c1cc(C2CCNCCN2)c(F)cc1F |  | inhibition | Nonstructural protein 5B |  | 0.1 µg/mL | Hepatitis C virus | 5% |
| CC[C@@H]1C[C@]1(NC(=O)[C@@H]1C[C@@H](Oc2cc(-c3ccccc3)nc3cc(OC)ccc23)CN1C(=O)[C@H](CC1CCCCC1)NC(=O)OC(C)(C)C)C(=O)NS(C)(=O)=O | BMS | IC50 | NS3/NS4A protease |  |  | Hepatitis C virus | <0.5 µM |

A second listing of 4 rows from above:

structure	strain	read-out	target	read by	tested at	agent	result
N[C@@H](CC(=O)O)C(=O)N[C@@H](CCC(=O)O)C(=O)N[C@H](C(=O)N[C@@H](CCC(=O)O)C(=O)N[C@@H](CC1CCCCC1)C(=O)N[C@@H](CS)C(=O)O)C(c1ccccc1)c1ccccc1		IC50	NS3 protease			Hepatitis C virus	0.05 µM
O=C(Nc1ccc2cn[nH]c2c1)c1cc(NCc2ccccn2)c(F)cc1F		IC50	Reverse transcriptase			Hepatitis B virus	0.1–1 µg/mL
C=C[C@@H]1C[C@]1(NC(=O)[C@@H]1C[C@@H](Oc2cc(-c3ccccc3)nc3cc(OC)ccc23)CN1C(=O)[C@@H](NC(=O)Oc1ccc(OC)cc1)C(C)(C)C)C(=O)NS(=O)(=O)C1CC1	BMS	IC50	NS3/NS4A protease			Hepatitis C virus	<0.05 µM
CC(C)C[C@H](NC(=O)[C@H](CC(=O)O)NC(=O)[C@H](CC1CCCCC1)NC(=O)[C@@H]1CCCN1C(=O)[C@H](CS)NC(=O)[C@@H](N)CC1CCCCC1)C(N)=O		IC50	NS3/NS4A protease			Hepatitis C virus	>100 µM

Lines come from different laboratories, so protocols vary. Percent inhibition refers to the dose given; in toxicity tests it is the harm to the cells. ICn: concentration for n% inhibition. Two numbers with a dash give a range or band.